Test results: US20070248619A1, “New pharmaceutical composition from natural materials for regulating immunity, its preparation method and use” (priority 2006, published 2007)

System: H9 cells infected by HIV-1
Assay: Co-cultivation experiment: fusion of HIV-1-infected H9 cells with C8166 cells
Details: C8166 + HIV-1-infected H9 cells, three days

Dextran Sulfate [DS]
IC50 inhibited fusion (head prints TC50): 5.71 µg/mL
